Data from ChEMBL document CHEMBL1129786, “Ryanodine action at calcium release channels. 1. importance of hydroxyl substituents” (J Med Chem, 1996).

Sequences of proteins named here, by UniProt entry; tags and fusion partners are left off.
UniProt P21817, whole entry: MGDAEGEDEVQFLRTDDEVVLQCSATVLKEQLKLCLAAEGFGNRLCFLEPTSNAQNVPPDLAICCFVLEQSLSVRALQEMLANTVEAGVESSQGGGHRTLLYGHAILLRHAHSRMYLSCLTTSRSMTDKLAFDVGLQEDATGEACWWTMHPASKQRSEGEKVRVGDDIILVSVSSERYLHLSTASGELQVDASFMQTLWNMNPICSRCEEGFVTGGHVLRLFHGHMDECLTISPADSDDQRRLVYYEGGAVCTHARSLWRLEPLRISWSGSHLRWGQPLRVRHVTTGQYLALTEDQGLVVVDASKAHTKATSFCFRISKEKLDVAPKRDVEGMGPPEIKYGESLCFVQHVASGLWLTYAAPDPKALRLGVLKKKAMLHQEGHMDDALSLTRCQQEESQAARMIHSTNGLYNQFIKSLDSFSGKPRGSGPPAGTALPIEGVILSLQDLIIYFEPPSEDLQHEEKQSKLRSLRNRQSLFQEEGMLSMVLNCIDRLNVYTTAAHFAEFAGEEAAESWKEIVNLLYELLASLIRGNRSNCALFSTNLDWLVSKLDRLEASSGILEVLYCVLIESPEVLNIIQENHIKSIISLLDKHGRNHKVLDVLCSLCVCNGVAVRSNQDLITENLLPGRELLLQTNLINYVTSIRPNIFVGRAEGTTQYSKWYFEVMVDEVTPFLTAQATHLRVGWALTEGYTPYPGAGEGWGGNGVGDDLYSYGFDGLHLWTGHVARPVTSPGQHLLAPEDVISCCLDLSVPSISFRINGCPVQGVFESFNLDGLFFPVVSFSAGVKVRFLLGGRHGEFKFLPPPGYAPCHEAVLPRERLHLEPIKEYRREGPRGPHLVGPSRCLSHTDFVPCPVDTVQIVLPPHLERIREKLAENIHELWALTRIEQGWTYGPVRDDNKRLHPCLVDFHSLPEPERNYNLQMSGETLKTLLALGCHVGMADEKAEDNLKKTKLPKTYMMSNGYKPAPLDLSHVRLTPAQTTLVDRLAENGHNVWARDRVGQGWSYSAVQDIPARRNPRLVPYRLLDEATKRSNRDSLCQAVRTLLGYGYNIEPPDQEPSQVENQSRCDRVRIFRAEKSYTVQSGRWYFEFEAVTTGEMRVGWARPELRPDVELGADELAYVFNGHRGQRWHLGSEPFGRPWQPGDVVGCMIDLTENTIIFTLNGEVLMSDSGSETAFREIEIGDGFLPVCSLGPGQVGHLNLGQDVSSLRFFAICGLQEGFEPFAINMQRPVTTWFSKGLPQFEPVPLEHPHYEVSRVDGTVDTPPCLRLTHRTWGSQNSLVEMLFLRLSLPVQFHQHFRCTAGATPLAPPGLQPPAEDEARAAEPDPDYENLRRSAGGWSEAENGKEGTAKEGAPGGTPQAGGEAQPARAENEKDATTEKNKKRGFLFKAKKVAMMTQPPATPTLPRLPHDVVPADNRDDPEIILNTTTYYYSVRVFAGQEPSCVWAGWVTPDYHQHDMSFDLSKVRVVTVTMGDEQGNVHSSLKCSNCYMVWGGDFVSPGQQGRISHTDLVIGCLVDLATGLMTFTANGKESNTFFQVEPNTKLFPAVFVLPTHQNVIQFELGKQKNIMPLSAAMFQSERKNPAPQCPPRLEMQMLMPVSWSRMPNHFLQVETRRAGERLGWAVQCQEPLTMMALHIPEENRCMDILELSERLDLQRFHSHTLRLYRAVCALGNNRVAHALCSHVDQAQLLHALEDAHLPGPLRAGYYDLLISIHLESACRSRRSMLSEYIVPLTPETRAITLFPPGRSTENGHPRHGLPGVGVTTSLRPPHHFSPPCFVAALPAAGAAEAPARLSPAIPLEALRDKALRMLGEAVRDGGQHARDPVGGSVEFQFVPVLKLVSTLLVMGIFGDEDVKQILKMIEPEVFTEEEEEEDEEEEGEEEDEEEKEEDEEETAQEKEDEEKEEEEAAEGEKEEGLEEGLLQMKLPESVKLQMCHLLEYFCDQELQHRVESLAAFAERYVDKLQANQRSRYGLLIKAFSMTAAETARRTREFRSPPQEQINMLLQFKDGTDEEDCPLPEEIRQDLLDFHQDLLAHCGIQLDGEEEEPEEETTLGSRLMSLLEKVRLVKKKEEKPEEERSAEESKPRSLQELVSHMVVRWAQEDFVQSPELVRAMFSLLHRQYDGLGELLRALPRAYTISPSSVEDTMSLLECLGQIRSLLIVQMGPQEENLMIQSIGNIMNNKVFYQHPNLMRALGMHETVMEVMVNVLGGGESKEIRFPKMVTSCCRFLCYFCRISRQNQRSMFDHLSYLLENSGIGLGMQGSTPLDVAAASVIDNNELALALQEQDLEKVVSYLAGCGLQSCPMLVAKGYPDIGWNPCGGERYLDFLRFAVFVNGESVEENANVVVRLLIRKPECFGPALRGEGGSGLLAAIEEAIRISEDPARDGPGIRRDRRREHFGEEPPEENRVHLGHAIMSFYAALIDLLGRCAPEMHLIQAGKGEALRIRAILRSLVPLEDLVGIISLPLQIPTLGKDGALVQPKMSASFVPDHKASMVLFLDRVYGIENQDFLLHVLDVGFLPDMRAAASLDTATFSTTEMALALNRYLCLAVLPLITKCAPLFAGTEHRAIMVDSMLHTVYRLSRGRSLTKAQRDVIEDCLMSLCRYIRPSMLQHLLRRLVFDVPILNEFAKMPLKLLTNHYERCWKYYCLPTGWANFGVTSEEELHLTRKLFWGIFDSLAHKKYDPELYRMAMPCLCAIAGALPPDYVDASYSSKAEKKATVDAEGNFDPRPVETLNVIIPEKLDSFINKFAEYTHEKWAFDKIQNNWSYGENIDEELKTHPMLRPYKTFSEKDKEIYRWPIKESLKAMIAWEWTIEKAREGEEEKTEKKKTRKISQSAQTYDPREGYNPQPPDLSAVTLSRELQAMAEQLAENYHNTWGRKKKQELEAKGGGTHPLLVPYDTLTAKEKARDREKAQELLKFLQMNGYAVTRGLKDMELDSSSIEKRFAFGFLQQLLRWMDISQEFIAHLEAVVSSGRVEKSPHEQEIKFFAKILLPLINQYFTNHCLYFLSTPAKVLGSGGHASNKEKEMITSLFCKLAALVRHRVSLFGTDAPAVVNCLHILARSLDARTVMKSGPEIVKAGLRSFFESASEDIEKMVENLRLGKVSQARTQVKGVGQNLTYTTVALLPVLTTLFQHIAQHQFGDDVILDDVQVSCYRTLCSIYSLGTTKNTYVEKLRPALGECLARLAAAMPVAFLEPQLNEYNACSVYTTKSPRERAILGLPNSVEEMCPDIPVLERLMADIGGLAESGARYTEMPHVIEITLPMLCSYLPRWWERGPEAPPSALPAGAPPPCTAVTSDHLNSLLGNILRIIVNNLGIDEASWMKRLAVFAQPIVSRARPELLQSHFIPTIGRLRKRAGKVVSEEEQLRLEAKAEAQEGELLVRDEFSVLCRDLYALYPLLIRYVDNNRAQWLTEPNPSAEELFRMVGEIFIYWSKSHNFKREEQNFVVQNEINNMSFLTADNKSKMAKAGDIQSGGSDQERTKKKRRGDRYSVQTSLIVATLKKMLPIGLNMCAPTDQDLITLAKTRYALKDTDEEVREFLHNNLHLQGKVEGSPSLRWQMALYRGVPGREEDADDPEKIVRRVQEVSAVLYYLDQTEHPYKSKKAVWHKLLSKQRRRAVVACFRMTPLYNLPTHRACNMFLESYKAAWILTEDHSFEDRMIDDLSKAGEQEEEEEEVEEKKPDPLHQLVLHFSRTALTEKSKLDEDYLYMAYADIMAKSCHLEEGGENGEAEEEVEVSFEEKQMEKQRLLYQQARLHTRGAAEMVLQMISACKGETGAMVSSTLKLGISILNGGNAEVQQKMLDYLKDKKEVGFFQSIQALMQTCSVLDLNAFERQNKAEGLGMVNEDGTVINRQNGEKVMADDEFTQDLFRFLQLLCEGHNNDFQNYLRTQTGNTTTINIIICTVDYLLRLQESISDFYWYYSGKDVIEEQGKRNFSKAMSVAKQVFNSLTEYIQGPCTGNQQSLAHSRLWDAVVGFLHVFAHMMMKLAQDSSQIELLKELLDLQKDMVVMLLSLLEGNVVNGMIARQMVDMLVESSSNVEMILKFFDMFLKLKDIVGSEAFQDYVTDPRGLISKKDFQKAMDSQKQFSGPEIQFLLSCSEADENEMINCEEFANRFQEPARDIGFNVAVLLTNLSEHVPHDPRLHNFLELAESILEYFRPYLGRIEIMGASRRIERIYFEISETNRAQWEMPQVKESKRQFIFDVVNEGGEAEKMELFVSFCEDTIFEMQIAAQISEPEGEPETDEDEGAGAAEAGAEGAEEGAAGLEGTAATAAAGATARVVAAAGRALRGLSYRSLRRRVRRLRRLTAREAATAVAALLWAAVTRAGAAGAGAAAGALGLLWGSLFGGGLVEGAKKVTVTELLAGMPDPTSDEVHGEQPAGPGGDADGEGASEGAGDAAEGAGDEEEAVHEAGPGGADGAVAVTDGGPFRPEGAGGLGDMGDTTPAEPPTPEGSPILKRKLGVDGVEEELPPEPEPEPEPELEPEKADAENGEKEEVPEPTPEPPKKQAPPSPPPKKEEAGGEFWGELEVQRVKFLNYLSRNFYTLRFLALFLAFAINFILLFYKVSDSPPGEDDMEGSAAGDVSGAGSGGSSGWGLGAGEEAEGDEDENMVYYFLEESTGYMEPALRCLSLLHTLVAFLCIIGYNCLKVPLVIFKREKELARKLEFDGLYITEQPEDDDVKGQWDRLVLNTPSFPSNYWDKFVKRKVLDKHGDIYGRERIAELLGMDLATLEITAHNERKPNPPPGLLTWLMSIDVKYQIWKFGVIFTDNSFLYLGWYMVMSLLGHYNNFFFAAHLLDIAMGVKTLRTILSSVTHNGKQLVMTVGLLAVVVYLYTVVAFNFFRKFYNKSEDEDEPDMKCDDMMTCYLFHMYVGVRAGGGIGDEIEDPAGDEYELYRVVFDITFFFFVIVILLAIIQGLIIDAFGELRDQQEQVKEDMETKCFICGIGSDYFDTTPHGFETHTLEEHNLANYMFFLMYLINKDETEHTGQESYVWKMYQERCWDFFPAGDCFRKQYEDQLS

Each molecule was assayed against Ryanodine receptor 1 (Homo sapiens) (UniProt P21817) (assay: Potency compared to [3H]ryanodine for activity in mouse brain.). Details: not given.
`CC1CCC2(O)C34OC5(O)C[C@]2(C)C2(O)C(OC(=O)c6ccc[nH]6)C(O)(C(C)C)C5(C)C32OP(C)(=O)OC14` (some centres not stated) showed a Potency of 3.
`CONC12C(OC(=O)c3ccc[nH]3)C(O)(C(C)C)C3(C)C1C14OC3(O)CC2(C)C1(O)CCC(C)C4O` (configuration not stated) showed a Potency of 28.
`CC1CCC2(O)C3(OC4(O)CC2(C)C2(NO)C(OC(=O)c5ccc[nH]5)C(O)(C(C)C)C4(C)C23)C1O` (configuration not stated) showed a Potency of 43.
`C=C1CCC23OB(O)OC45C(OC(=O)c6ccc[nH]6)C(O)(C(C)C)C6(C)C(O)(CC24C)OC3(C1O)C56O` (configuration not stated) showed a Potency of 75.
For `C=C1CCC2(O)C3(C)CC4(O)OC25C1OP(=O)(NC)OC51C3(O)C(OC(=O)c2ccc[nH]2)C(O)(C(C)C)C41C` (configuration not stated), the Potency was 5.
Work on `CC1CCC2(O)C3(C)CC4(O)OC25C1OP(C)(=O)OC51C3(O)C(OC(=O)c2ccc[nH]2)C(O)(C(C)C)C41C` (configuration not stated) yielded a Potency of 3.9.
In the case of `C=C1CCC2(O)C3(C)CC4(O)OC2(C1O)C1(O)C3(O)C(OC(=O)c2cccn2C)C(O)(C(C)C)C41C` (configuration not stated), the Potency is reported as 13.
`C=C1CCC2(O)C3(C)CC4(O)OC2(C1O)C1(O)C4(C)C(C(C)C)C(OC(=O)c2ccc[nH]2)C31O` (configuration not stated) gave a Potency of 15.
`C=C1CCC2(O)C3(C)CC4(O)OC2(C1C)C1(O)C3(C)C(OC(=O)c2ccc[nH]2)C(O)(C(C)C)C41C` (configuration not stated) gave a Potency of 1.8.
In the case of `C=C1CCC2(O)C3(C)CC4(O)OC2(C1O)C1(O)C3(O)C(OC(=O)c2ccc[nH]2)C2(OB(O)OC2(C)C)C41C` (configuration not stated), the Potency is reported as 5.8.
`CC1CCC2(O)C3(C)CC4(O)OC2(C1O)C1(O)C3(O)C(OC(=O)c2ccc[nH]2)C(O)(C(C)(C)O)C41C` (configuration not stated) was tested, and the Potency was 2.5.
`CC1CCC2(O)C3(C)CC4(O)OC2(C1O)C1(O)C3(NOCc2ccccc2)C(OC(=O)c2ccc[nH]2)C(O)(C(C)C)C41C` (configuration not stated) was tested, and the Potency was 8.3.
`CC1CCC2(O)C3(C)CC4(O)OC2(C1O)C1(O)C3C(OC(=O)c2ccc[nH]2)C(O)(C(C)C)C41C` (configuration not stated) was tested, and the Potency was 21.
In the case of `C=C1CCC2(O)C3(C)CC4(O)OC2(C1O)C1(O)C3(C)C(OC(=O)c2ccc[nH]2)C(O)(C(C)C)C41C` (configuration not stated), the Potency is reported as 21.
For `CC1CCC2(O)C3(OC4(O)CC2(C)C2(O)C(OC(=O)c5ccc[nH]5)C(O)(C(C)C)C4(C)C23)C1O` (configuration not stated), the Potency was 54.
Work on `CC1CCC2(O)C3(C)CC4(O)OC2(C1O)C1(O)C3(O)C(OC(=O)c2ccc[nH]2)C2(OC2(C)C)C41C` (configuration not stated) yielded a Potency of 1.4.

The molecules below were run against Ryanodine receptor 1 (Oryctolagus cuniculus) (UniProt P11716) (assay: Potency compared to [3H]ryanodine for activity in rabbit muscle.). Details: Muscle tissue.
In the case of `CC1CCC2(O)C34OC5(O)C[C@]2(C)C2(O)C(OC(=O)c6ccc[nH]6)C(O)(C(C)C)C5(C)C32OP(C)(=O)OC14` (some centres not stated), the Potency is reported as 4.2.
For `CONC12C(OC(=O)c3ccc[nH]3)C(O)(C(C)C)C3(C)C1C14OC3(O)CC2(C)C1(O)CCC(C)C4O` (configuration not stated), the Potency was 34.
With `C=C1CCC23OB(c4ccsc4)OC45C(OC(=O)c6ccc[nH]6)C(O)(C(C)C)C6(C)C(O)(CC24C)OC3(C1O)C56O` (configuration not stated) the Potency was 90.
`CC1CCC2(O)C3(OC4(O)CC2(C)C2(NO)C(OC(=O)c5ccc[nH]5)C(O)(C(C)C)C4(C)C23)C1O` (configuration not stated) was tested, and the Potency was 67.
For `C=C1CCC23OB(O)OC45C(OC(=O)c6ccc[nH]6)C(O)(C(C)C)C6(C)C(O)(CC24C)OC3(C1O)C56O` (configuration not stated), the Potency was 100.
Work on `C=C1CCC2(O)C3(C)CC4(O)OC25C1OP(=O)(NC)OC51C3(O)C(OC(=O)c2ccc[nH]2)C(O)(C(C)C)C41C` (configuration not stated) yielded a Potency of 4.5.
For `CC1CCC2(O)C3(C)CC4(O)OC25C1OP(C)(=O)OC51C3(O)C(OC(=O)c2ccc[nH]2)C(O)(C(C)C)C41C` (configuration not stated), the Potency was 3.6.
For `C=C1CCC2(O)C3(C)CC4(O)OC2(C1O)C1(O)C3(O)C(OC(=O)c2cccn2C)C(O)(C(C)C)C41C` (configuration not stated), the Potency was 12.
Work on `C=C1CCC2(O)C3(C)CC4(O)OC2(C1O)C1(O)C4(C)C(C(C)C)C(OC(=O)c2ccc[nH]2)C31O` (configuration not stated) yielded a Potency of 13.
`C=C1CCC2(O)C3(C)CC4(O)OC2(C1C)C1(O)C3(C)C(OC(=O)c2ccc[nH]2)C(O)(C(C)C)C41C` (configuration not stated) showed a Potency of 3.5.
`C=C1CCC2(O)C3(C)CC4(O)OC2(C1O)C1(O)C3(O)C(OC(=O)c2ccc[nH]2)C2(OB(O)OC2(C)C)C41C` (configuration not stated) was tested, and the Potency was 4.8.
Work on `CC1CCC2(O)C3(C)CC4(O)OC2(C1O)C1(O)C3(O)C(OC(=O)c2ccc[nH]2)C(O)(C(C)(C)O)C41C` (configuration not stated) yielded a Potency of 2.
Work on `CC1CCC2(O)C3(C)CC4(O)OC2(C1O)C1(O)C3(NOCc2ccccc2)C(OC(=O)c2ccc[nH]2)C(O)(C(C)C)C41C` (configuration not stated) yielded a Potency of 21.
`C=C1CCC23OB(C4CCCCC4)OC45C(OC(=O)c6ccc[nH]6)C(O)(C(C)C)C6(C)C(O)(CC24C)OC3(C1O)C56O` (configuration not stated) gave a Potency of 47.
`CC1CCC2(O)C3(C)CC4(O)OC2(C1O)C1(O)C3C(OC(=O)c2ccc[nH]2)C(O)(C(C)C)C41C` (configuration not stated) was tested, and the Potency was 19.
For `C=C1CCC2(O)C3(C)CC4(O)OC2(C1O)C1(O)C3(C)C(OC(=O)c2ccc[nH]2)C(O)(C(C)C)C41C` (configuration not stated), the Potency was 29.
`C=C1CCC23OB(c4ccccc4)OC45C(OC(=O)c6ccc[nH]6)C(O)(C(C)C)C6(C)C(O)(CC24C)OC3(C1O)C56O` (configuration not stated) gave a Potency of 71.
Work on `CC1CCC2(O)C3(OC4(O)CC2(C)C2(O)C(OC(=O)c5ccc[nH]5)C(O)(C(C)C)C4(C)C23)C1O` (configuration not stated) yielded a Potency of 64.
`C=C1CCC23OB(C)OC45C(OC(=O)c6ccc[nH]6)C(O)(C(C)C)C6(C)C(O)(CC24C)OC3(C1O)C56O` (configuration not stated) gave a Potency of 22.

What follows are molecules tested against Ryanodine receptor 1 (Homo sapiens) (UniProt P21817) (assay: Potency compared to [3H]ryanodine for activity in canine ventricle.). Details: Canis lupus familiaris; Cardiac ventricle.
For `CONC12C(OC(=O)c3ccc[nH]3)C(O)(C(C)C)C3(C)C1C14OC3(O)CC2(C)C1(O)CCC(C)C4O` (configuration not stated), the Potency was 7.3.
`CC1CCC2(O)C3(OC4(O)CC2(C)C2(NO)C(OC(=O)c5ccc[nH]5)C(O)(C(C)C)C4(C)C23)C1O` (configuration not stated) showed a Potency of 6.9.
For `C=C1CCC23OB(O)OC45C(OC(=O)c6ccc[nH]6)C(O)(C(C)C)C6(C)C(O)(CC24C)OC3(C1O)C56O` (configuration not stated), the Potency was 43.
`C=C1CCC2(O)C3(C)CC4(O)OC25C1OP(=O)(NC)OC51C3(O)C(OC(=O)c2ccc[nH]2)C(O)(C(C)C)C41C` (configuration not stated) gave a Potency of 5.
`CC1CCC2(O)C3(C)CC4(O)OC25C1OP(C)(=O)OC51C3(O)C(OC(=O)c2ccc[nH]2)C(O)(C(C)C)C41C` (configuration not stated) gave a Potency of 1.9.
`C=C1CCC2(O)C3(C)CC4(O)OC2(C1O)C1(O)C3(O)C(OC(=O)c2cccn2C)C(O)(C(C)C)C41C` (configuration not stated) gave a Potency of 19.
In the case of `C=C1CCC2(O)C3(C)CC4(O)OC2(C1O)C1(O)C4(C)C(C(C)C)C(OC(=O)c2ccc[nH]2)C31O` (configuration not stated), the Potency is reported as 31.
`C=C1CCC2(O)C3(C)CC4(O)OC2(C1O)C1(O)C3(O)C(OC(=O)c2ccc[nH]2)C2(OB(O)OC2(C)C)C41C` (configuration not stated) showed a Potency of 2.
Work on `CC1CCC2(O)C3(C)CC4(O)OC2(C1O)C1(O)C3(O)C(OC(=O)c2ccc[nH]2)C(O)(C(C)(C)O)C41C` (configuration not stated) yielded a Potency of 4.
Work on `CC1CCC2(O)C3(C)CC4(O)OC2(C1O)C1(O)C3(NOCc2ccccc2)C(OC(=O)c2ccc[nH]2)C(O)(C(C)C)C41C` (configuration not stated) yielded a Potency of 16.
For `CC1CCC2(O)C3(C)CC4(O)OC2(C1O)C1(O)C3C(OC(=O)c2ccc[nH]2)C(O)(C(C)C)C41C` (configuration not stated), the Potency was 9.6.
In the case of `C=C1CCC2(O)C3(C)CC4(O)OC2(C1O)C1(O)C3(C)C(OC(=O)c2ccc[nH]2)C(O)(C(C)C)C41C` (configuration not stated), the Potency is reported as 6.6.
Work on `CC1CCC2(O)C3(OC4(O)CC2(C)C2(O)C(OC(=O)c5ccc[nH]5)C(O)(C(C)C)C4(C)C23)C1O` (configuration not stated) yielded a Potency of 17.
For `CC1CCC2(O)C3(C)CC4(O)OC2(C1O)C1(O)C3(O)C(OC(=O)c2ccc[nH]2)C2(OC2(C)C)C41C` (configuration not stated), the Potency was 7.9.

Same assay, conditions: Oryctolagus cuniculus; Cardiac ventricle
`C=C1CCC23OB(c4ccsc4)OC45C(OC(=O)c6ccc[nH]6)C(O)(C(C)C)C6(C)C(O)(CC24C)OC3(C1O)C56O` (configuration not stated) was tested, and the Potency was 69.
For `C=C1CCC23OB(C)OC45C(OC(=O)c6ccc[nH]6)C(O)(C(C)C)C6(C)C(O)(CC24C)OC3(C1O)C56O` (configuration not stated), the Potency was 48.
Work on `CC1CCC2(O)C3(C)CC4(O)OC2(C1O)C1(O)C3(O)C(OC(=O)c2ccc[nH]2)C2(OC2(C)C)C41C` (configuration not stated) yielded a Potency of 0.8.
